Our source for the IC50 values is ChEMBL document CHEMBL1129975, “Depsides and depsidones as inhibitors of HIV-1 integrase: discovery of novel inhibitors through 3D database searching” (J Med Chem, 1997).

The target in experiment [1] is T1, Human immunodeficiency virus type 1 integrase (Human immunodeficiency virus 1, UniProt Q7ZJM1). Briefly: Inhibitory concentration of compound against strand transfer of HIV-1 integrase in experiment 1.
Experiment [2] deals with T1, Human immunodeficiency virus type 1 integrase. Briefly: Inhibitory concentration of compound against 3'-processing of HIV-1 integrase in experiment 2.
The target is the same in experiment [3]. Briefly: Inhibitory concentration of compound against strand transfer of HIV-1 integrase in experiment 2.
The target is the same in experiment [4]. Briefly: Inhibitory concentration of compound against 3'-processing of HIV-1 integrase in experiment 1.

As to `O=[N+]([O-])c1cc(-c2cc([N+](=O)[O-])c(O)c([N+](=O)[O-])c2)cc([N+](=O)[O-])c1O`, the IC50 came to 57.3 µM in experiment [1], 65 µM in experiment [2], 35.8 µM in experiment [3] and 61.7 µM in experiment [4].

Regarding `O=C(c1ccc(O)cc1O)c1c([N+](=O)[O-])cc([N+](=O)[O-])cc1[N+](=O)[O-]`, the IC50 in experiment [1] was found to be 88.2 µM; in experiment [2] it was 67 µM; in experiment [3], 54.4 µM; in experiment [4] it was 66.2 µM.

For the compound `O=[N+]([O-])c1c(Cl)c(O)c(Cl)c([N+](=O)[O-])c1Nc1c([N+](=O)[O-])c(Cl)c(O)c(Cl)c1[N+](=O)[O-]`, the IC50 in experiment [1] was 4.4 µM; in experiment [2], 8.3 µM; in experiment [3], 4 µM; in experiment [4], 11 µM.

As for `O=C(O)C(CSSCC(Nc1ccc([N+](=O)[O-])cc1[N+](=O)[O-])C(=O)O)Nc1ccc([N+](=O)[O-])cc1[N+](=O)[O-]` (stereo not given), the IC50 in experiment [1] stood at 43 µM; in experiment [2], 82 µM; in experiment [3], 51 µM; in experiment [4] it was 45.1 µM.

As for `O=[N+]([O-])c1cc(Cc2cc([N+](=O)[O-])c(O)c([N+](=O)[O-])c2)cc([N+](=O)[O-])c1O`, the IC50 in experiment [1] was determined as 43.9 µM; in experiment [2], 61.8 µM; in experiment [3], 40.5 µM; in experiment [4], 49.7 µM.

The term IC50 denotes the midpoint of a concentration-inhibition curve.
